Data from PubChem BioAssay AID435030 (The Scripps Research Institute Molecular Screening Center, 2010).
The list shows a part of the results, in another mix than the full data. Calls of active or inactive are those of the source. Cut-off read from the data, not from the text of the source: active = inhibition above about 12%; inactive = the rest.

assay: growth inhibition of E. coli expressing H. pylori AddAB, primary screen, AddAB inhibitor project, absorbance (AID 435030); conditions: at 11.9 µM, active compounds read high;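 note: 0% = vehicle wells of infected cells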

Row | SMILES | inhibition
1 | CC(C)(C)C(=O)NC(Sc1ccncn1)C(Cl)(Cl)Cl (stereo unspecified) | inactive: 2.37%
2 | O=[N+]([O-])c1ncn(CCn2ncnc2[N+](=O)[O-])n1 | inactive: -0.69%
3 | CCOP(=O)(Nc1ccccc1)OCC | inactive: 0%
4 | Cc1cc(SC(NC(=O)c2ccc(F)cc2)C(Cl)(Cl)Cl)ncn1 (stereo unspecified) | inactive: 1.04%
5 | Cc1ccc(NP(=O)(Oc2ccccc2F)Oc2ccccc2F)nc1 | inactive: 1.96%
6 | CN(C(=O)Cc1ccc(Cl)c(Cl)c1)[C@H]1CCCC[C@@H]1N1CCCC1 | inactive: -0.08%
7 | O=C(O)c1ccccc1[As](=O)(O)O | inactive: -1.73%
8 | CC(=O)Nc1ccc([As](=O)(O)O)cc1 | inactive: -1.23%
9 | O=P(Nc1nc2ccc(Cl)cc2s1)(c1ccccc1)c1ccccc1 | inactive: 1.63%
10 | CCN(N=Nc1nonc1N)c1nonc1N | inactive: 3.18%
11 | O=[N+]([O-])c1cc([N+](=O)[O-])c(CCN2CCOCC2)c([N+](=O)[O-])c1 | inactive: -1.07%
12 | COc1ccccc1OP(=O)(Nc1ccc(C)cn1)Oc1ccccc1OC | inactive: 4.24%
13 | Cc1ccc(OP(=O)(Nc2nccs2)Oc2ccc(C)cc2)cc1 | inactive: -2.23%
14 | Clc1ccc(Cl)c(NC2=NCC(CBr)S2)c1 (stereo unspecified) | inactive: 1.88%
15 | CN1CCCC(OC(=O)C(c2ccccc2)c2ccccc2)C1 (stereo unspecified) | inactive: 0.08%
16 | NC(=O)c1cc([N+](=O)[O-])cc([N+](=O)[O-])c1N | inactive: 0.85%
17 | CN(C(=O)Cc1ccc(Cl)c(Cl)c1)[C@H]1CCCC[C@H]1N1CCCC1 | inactive: -2.93%
18 | Cc1ccc(N/C(=N/P(=O)(N2CCOCC2)N2CCOCC2)N2CCOCC2)cc1 | inactive: 3.49%
19 | CC(C)CC(=O)NC(Sc1ccc(Cl)cc1)C(Cl)(Cl)Cl (stereo unspecified) | inactive: 3.25%
20 | Nc1cc(N)c2nonc2c1[N+](=O)[O-] | inactive: 2.66%
21 | Oc1ccccc1CNc1ccccn1 | inactive: 2.39%
22 | Cc1c2non([O-])c-2c(C)[n+](=O)[n+]1[O-] | inactive: 10.6%
23 | O=C(NC(Sc1ccncn1)C(Cl)(Cl)Cl)c1ccccc1 (stereo unspecified) | inactive: -0.26%
24 | COc1ccc2nc(NP(=O)(c3ccccc3)c3ccccc3)sc2c1 | inactive: -2.59%
25 | COc1cc(I)ccc1[As](=O)(O)O | inactive: 0.17%
26 | O=C(OC1CN2CCC1CC2)C12CC3CC(CC(C3)C1)C2 (stereo unspecified) | inactive: 2.59%

Row | SMILES | inhibition
27 | Cc1cc(=O)[nH]c(N[N+](=O)[O-])n1 | inactive: 2.47%
28 | Cc1c2c(nc3ccccc13)SC(C(Cl)Cl)C2 (stereo unspecified) | inactive: -0.75%
29 | COc1ccc(N/C(=N/P(=O)(N2CCOCC2)N2CCOCC2)N2CCOCC2)cc1 | inactive: 4.45%
30 | Cc1ccc2nc3c(c(C)c2c1)CC(C(Cl)Cl)S3 (stereo unspecified) | inactive: 0.9%
31 | Cc1ccc(OP(=O)(Nc2ccc([N+](=O)[O-])cn2)Oc2ccc(C)cc2)cc1 | inactive: -0.91%
32 | C[As](=O)(O)c1cccc(C(=O)O)c1 | inactive: -0.81%
33 | O=[As](O)(c1ccc(O)cc1)c1ccccc1O | inactive: 1.18%
34 | COc1cc(C(=O)NCC2(N3CCOCC3)CCCCC2)ccc1OCC(C)C | inactive: 0.94%
35 | CCN(CC)C(=S)SC(NC=O)C(Cl)(Cl)Cl (stereo unspecified) | inactive: 5.26%
36 | CC(C)NC(=O)NP(=O)(Oc1ccccc1)Oc1ccccc1 | inactive: 2.22%
37 | O=[N+]([O-])c1cc([N+](=O)[O-])c(-c2ccn[nH]2)s1 | active: 26.6%
38 | CC(C)c1ccc(OP(=O)(Nc2ccccn2)Oc2ccccc2F)cc1 (stereo unspecified) | inactive: -0.59%
39 | ClCCSc1nnc(-c2cccnc2)o1 | inactive: 0.9%
40 | Cc1cc(SC(NC(=O)c2ccccc2)C(Cl)(Cl)Cl)nc(C(C)C)n1 (stereo unspecified) | inactive: 1.15%
41 | CCOC(=O)Nc1ccc([As](=O)(O)O)c(O)c1 | inactive: 3.97%
42 | O=P(Nc1ccccn1)(c1cccc2ccccc12)c1cccc2ccccc12 | inactive: 1.29%
43 | Cc1cc(SC(NC=O)C(Cl)(Cl)Cl)ncn1 (stereo unspecified) | inactive: 2.75%
44 | CCOC(=O)Nc1cccc([As](=O)(O)O)c1 | inactive: 1.4%
45 | O=C(COc1ccccc1)OC1CN2CCC1CC2 (stereo unspecified) | inactive: 0.34%
46 | O=C(Nc1ccncc1[N+](=O)[O-])c1ccc([N+](=O)[O-])cc1[N+](=O)[O-] | inactive: 1.62%
47 | COP1(=S)c2c(C)nn(CCC#N)c2N=C(c2ccc(F)cc2)N1C (stereo unspecified) | inactive: 2.74%
48 | CCC(C)N(CC(C)C)C(=S)SC(NC(C)=O)C(Cl)(Cl)Cl (stereo unspecified) | inactive: 5.92%
49 | CCOC(=O)c1ccc(NC(=O)C(C)(CCl)SC)cc1 (stereo unspecified) | inactive: 1.6%
50 | O=C(OC1CN2CCC1CC2)c1cccc([N+](=O)[O-])c1 (stereo unspecified) | inactive: 4.48%
51 | Clc1n[nH]nc1-c1nn[nH][15n]1 | inactive: 0.16%
